Experimental data: PubChem BioAssay AID485275 (NMMLSC, 2010)
The entries are a selection whose mix differs from that of the whole data set. Active and inactive are the calls of the source.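 Rule for the calls: active = plate passing quality check with inhibition over a set limit, or well fluorescence over plate mean plus 4 SD; inactive = the rest.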

Experiment: antifungal drug efflux pump blockers, triplex strains – S. cerevisiae, Nile Red, multiplex, primary screen (AID 485275);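 note: Nile Red retained in pooled yeast measured as flow cytometry median fluorescence; 0% = buffer negative control and 100% = Enniatin B positive control; higher means more Nile Red kept so more efflux inhibition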
Conditions: S. cerevisiae Candida pump triplex, at 10 µM, hits give high values

Row | SMILES | inhibition
1 | NC(=O)Nc1ccc([As](=O)(O)O)cc1 | inactive: -0.25%
2 | CN(C)C(=O)c1cc([N+](=O)[O-])cc2c1-c1c(cc([N+](=O)[O-])cc1[N+](=O)[O-])C2=O | inactive: -0.01%
3 | O=[N+]([O-])c1ccc2c(c1)nnn2O | inactive: -0.1%
4 | CN(C(=O)Cc1ccc(Cl)c(Cl)c1)[C@H]1CC[C@@]2(CCCO2)C[C@@H]1N1CCCC1 | inactive: 0.16%
5 | N#CCCN(C(=O)COC(=O)C(O)(c1ccccc1)c1ccccc1)c1ccc(F)cc1 | inactive: 0.02%
6 | CN(C(=O)Cc1ccccc1)[C@@H]1CC[C@]2(CCCO2)C[C@H]1N1CCCC1 | inactive: 0.19%
7 | CCOP1(=S)c2c(C)nn(CCC#N)c2N=C(c2ccc(F)cc2)N1C (centres undefined) | inactive: -0.05%
8 | COc1cc(C(=O)NCC2(N3CCOCC3)CCCCC2)cc(Cl)c1OC(C)C | inactive: 0.08%
9 | O=[As](O)(O)c1cccnc1 | inactive: -0.13%
10 | CS(=O)(=O)c1ccc(Cl)c(NC(=O)COC(=O)C(O)(c2ccccc2)c2ccccc2)c1 | inactive: -0.11%
11 | O=C(OC1CN2CCC1CC2)c1ccc(Cl)cc1 (centres undefined) | inactive: -0.16%
12 | O=[As](O)(c1cccc(O)c1)c1cccc(O)c1 | inactive: -0.13%
13 | Cc1cccc(OCC(=O)OC2CN3CCC2CC3)c1 (centres undefined) | inactive: -0.23%
14 | CCCOP(=S)(Nc1nc(N)cc(=O)[nH]1)OCCC | inactive: 0%
15 | Nc1cccc2c([As](=O)(O)O)cccc12 | inactive: 0.12%
16 | Cc1ccc(NCCc2c([N+](=O)[O-])cc([N+](=O)[O-])cc2[N+](=O)[O-])cc1 | inactive: 0.08%
17 | COc1cc(C2NCCC3(OCCO3)C2(C)C)cc(OC)c1OC (centres undefined) | inactive: -0.13%
18 | CCOP(=O)(Nc1cccc2ccccc12)OCC | inactive: 0.3%
19 | O=C(OC1CN2CCC1CC2)C12CC3CC(CC(C3)C1)C2 (centres undefined) | inactive: -0.1%
20 | Cc1cc(=O)[nH]c(N[N+](=O)[O-])n1 | inactive: 0.06%
21 | Cc1c2c(nc3ccccc13)SC(C(Cl)Cl)C2 (centres undefined) | inactive: -0.04%
22 | COc1ccc2nc(NP(=O)(c3ccccc3)c3ccccc3)sc2c1 | inactive: 0.01%
23 | COc1cc(I)ccc1[As](=O)(O)O | inactive: -0.08%
24 | COc1ccc(N/C(=N/P(=O)(N2CCOCC2)N2CCOCC2)N2CCOCC2)cc1 | inactive: -0.07%
25 | O=[As](O)(c1ccc(O)cc1)c1ccccc1O | inactive: -0.01%

Row | SMILES | inhibition
26 | C[As](=O)(O)c1cccc(C(=O)O)c1 | inactive: -0.09%
27 | COc1cc(C(=O)NCC2(N3CCOCC3)CCCCC2)ccc1OCC(C)C | inactive: 0.28%
28 | Cc1ccc2nc3c(c(C)c2c1)CC(C(Cl)Cl)S3 (centres undefined) | inactive: 0.2%
29 | Cc1ccc(OP(=O)(Nc2ccc([N+](=O)[O-])cn2)Oc2ccc(C)cc2)cc1 | inactive: -0.02%
30 | CC(C)c1ccc(OP(=O)(Nc2ccccn2)Oc2ccccc2F)cc1 (centres undefined) | inactive: 0.09%
31 | CCN(CC)C(=S)SC(NC=O)C(Cl)(Cl)Cl (centres undefined) | inactive: 0.06%
32 | CC(C)NC(=O)NP(=O)(Oc1ccccc1)Oc1ccccc1 | inactive: -0.12%
33 | O=[N+]([O-])c1cc([N+](=O)[O-])c(-c2ccn[nH]2)s1 | inactive: -0.14%
34 | CCOC(=O)Nc1ccc([As](=O)(O)O)c(O)c1 | inactive: 0.01%
35 | Cc1cc(SC(NC(=O)c2ccccc2)C(Cl)(Cl)Cl)nc(C(C)C)n1 (centres undefined) | inactive: -0.18%
36 | CCOC(=O)Nc1cccc([As](=O)(O)O)c1 | inactive: -0.07%
37 | O=[N+]([O-])c1ccc(Nc2ccc(Oc3ccc([N+](=O)[O-])cc3[N+](=O)[O-])cc2)c([N+](=O)[O-])c1 | inactive: -0.05%
38 | O=P(Nc1ccccn1)(c1cccc2ccccc12)c1cccc2ccccc12 | inactive: 0.08%
39 | Cc1cc(SC(NC=O)C(Cl)(Cl)Cl)ncn1 (centres undefined) | inactive: 0.29%
40 | COP1(=S)c2c(C)nn(CCC#N)c2N=C(c2ccc(F)cc2)N1C (centres undefined) | inactive: 0.01%
41 | O=C(COc1ccccc1)OC1CN2CCC1CC2 (centres undefined) | inactive: 0.13%
42 | O=C(Nc1ccncc1[N+](=O)[O-])c1ccc([N+](=O)[O-])cc1[N+](=O)[O-] | inactive: -0.11%
43 | CCOC(=O)c1ccc(NC(=O)C(C)(CCl)SC)cc1 (centres undefined) | inactive: 0.06%
44 | O=C(OC1CN2CCC1CC2)c1cccc([N+](=O)[O-])c1 (centres undefined) | inactive: -0.06%
45 | CCC(C)N(CC(C)C)C(=S)SC(NC(C)=O)C(Cl)(Cl)Cl (centres undefined) | inactive: 0.03%
46 | COc1ccc(C2=NCC(CBr)S2)cc1 (centres undefined) | inactive: 0.05%
47 | O=[N+]([O-])c1cccc2n[nH]nc12 | inactive: -0.15%
48 | CC(=O)N1C2C3N(C(C)=O)C1C1N(C(C)=O)C(C(N1C(C)=O)N3C(C)=O)N2C(C)=O | inactive: -0.11%
49 | Cc1ccc(NP(=O)(Oc2ccccc2)Oc2ccccc2)nc1 | inactive: 0.69%
